# Test results taken from patent US6512006B1, “HIV protease inhibitors” (Warner-Lambert Company, priority 1999, dated 2003).
# Test system: HIV infected lymphocyte derived CEM cells
# Experiment: Cellular Infection Assay, XTT cytopathic procedure in CEM cells (antiviral efficacy)
# Format: cell-based
# Conditions: therapeutic index (TC50/EC50)
# Method: Compounds were tested in lymphocyte derived CEM cells using the XTT cytopathic procedures and were performed at Southern Research Institute (Buckheit, et al., Antiviral Res., 1993;21:247; see also Weislow, et al., J. Nat. Cancer Inst., 1989;81:577). Compound concentrations were 0.32, 1, 3.2, 10, 32, and 100 μM. The EC50 represents the concentration of agent, which reduces HIV cytopathic effects 50% relative to untreated control. Cellular toxicity of the agents are estimated from the TC50 which represents the concentration of the agent which inhibits 50% of the viability of uninfected cells.
# EC50 indicates the concentration of the drug which provide 50% protection against HIV.
row,Compound,TI
1,"CCN(C1=C(O)CC(CCc2ccccc2)(C(C)C)OC1=O)c1cccc(NS(=O)(=O)c2ccc(C(F)(F)F)cn2)c1 (stereo not shown) [Example 3, 5-Trifluoromethyl-pyridine-2-sulfonic acid {3-[ethyl-(4-hydroxy-6-isopropyl-2-oxo-6-phenethyl-5,6-dihydro-2H-pyran-3-yl)-amino]-phenyl}-amide]",60
2,"CCCN(C1=C(O)CC(CCc2cccc(O)c2)(C2CCCC2)OC1=O)c1ccccc1 (stereo not shown) [Example 8, 6-Cyclopentyl-4-hydroxy-6-[2-(3-hydroxy-phenyl)-ethyl]-3-(phenyl-propyl-amino)-5,6-dihydro-pyran-2-one]",51.5
3,"CCCN(C1=C(O)CC(CCc2ccc(O)cc2)(C(C)C)OC1=O)c1ccccc1 (stereo not shown) [Example 7, 4-Hydroxy-6-[2-(4-hydroxy-phenyl)-ethyl]-6-isopropyl-3-(phenyl-propyl-amino)-5,6-dihydro-pyran-2-one]",153.8
4,"CCCCN(C1=C(O)CC(CCc2ccc(O)cc2)(C(C)C)OC1=O)c1ccccc1 (stereo not shown) [Example 13, 3-(Butyl-phenyl-amino)-4-hydroxy-6-[2-(4-hydroxy-phenyl)-ethyl]-6-isopropyl-5,6-dihydro-pyran-2-one]",104
5,"CC(C)C1(CCc2ccc(O)cc2)CC(O)=C(N(CCC#N)c2ccccc2)C(=O)O1 (stereo not shown) [Example 21, 3-({4-Hydroxy-6-[2-(4-hydroxy-phenyl)-ethyl]-6-isopropyl-2-oxo-5,6-dihydro-2H-pyran-3-yl}-phenyl-amino)-propionitrile]",118.5
6,"CCCN(C1=C(O)CC(CCc2ccc(O)cc2)(C(C)C)OC1=O)c1cccc(NS(=O)(=O)c2ccc(C(F)(F)F)cn2)c1 (stereo not shown) [Example 4, 5-Trifluoromethyl-pyridine-2-sulfonic acid [3-({4-hydroxy-6-[2-(4-hydroxy-phenyl)-ethyl]-6-isopropyl-2-oxo-5,6-dihydro-2H-pyran-3-yl}-propyl-amino)-phenyl]-amide]",76.4
7,"CCN(C1=C(O)CC(CCc2ccc(O)cc2)(C(C)C)OC1=O)c1cccc(NS(=O)(=O)c2ccc(C(F)(F)F)cn2)c1 (stereo not shown) [Example 6, 5-Trifluoromethyl-pyridine-2-sulfonic acid [3-(ethyl-{4-hydroxy-6-[2-(4-hydroxy-phenyl)-ethyl]-6-isopropyl-2-oxo-5,6-dihydro-2H-pyran-3-yl}-amino)-phenyl]-amide]",102.3
8,"CCCN(C1=C(O)CC(CCc2ccc(O)cc2)(C(C)C)OC1=O)c1cccc(NS(=O)(=O)c2ccc(C(F)(F)F)cn2)c1 (stereo not shown) [Example 2, 5-Trifluoromethyl-pyridine-2-sulfonic acid [3-({4-hydroxy-6-[2-(4-hydroxy-phenyl)-ethyl]-6-isopropyl-2-oxo-5,6-dihydro-2H-pyran-3-yl}-propyl-amino)-phenyl]-amide]",71
9,"CCCN(C1=C(O)CC(CCc2ccccc2)(C(C)C)OC1=O)c1cccc(NS(=O)(=O)c2ccc(C(F)(F)F)cn2)c1 (stereo not shown) [Example 1, 5-Trifluoromethyl-pyridine-2-sulfonic acid {3-[(4-hydroxy-6-isopropyl-2-oxo-6-phenethyl-5,6-dihydro-2H-pyran-3-yl)-propyl-amino]-phenyl}-amide]",90
10,"CCCC1(CCc2ccc(O)cc2)CC(O)=C(N(CC)c2cccc(NS(=O)(=O)c3ccc(C(F)(F)F)cn3)c2)C(=O)O1 (stereo not shown) [Example 5, 5-Trifluoromethyl-pyridine-2-sulfonic acid [3-(ethyl-{4-hydroxy-6-[2-(4-hydroxy-phenyl)-ethyl]-2-oxo-6-propyl-5,6-dihydro-2H-pyran-3-yl}-amino)-phenyl]-amide]",86.9
